Data as given in PubChem BioAssay AID1224833 (University of Georgia, 2016)
Screen: 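Human genes whose knock-down alters rotavirus replication in monkey cells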 (primary screen). Cell system: monkey MA104 kidney cells. Reagent: siRNA pool against human genes, 50 nM. Duration: 48 h knock-down before infection; read 24 h after infection. Conditions: infection with rotavirus strain RV3 two days after transfection; infectious dose for this stage not given. Measured: 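Rotavirus antigen per well by fluorescent immunoassay, normalised to non-targeting control wells on each plate and given as a standard z-score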. Direction: z-score vs non-targeting control: higher = more rotavirus replication than with non-targeting control. Rule for the call: In these data the active calls have z-score vs non-targeting control at about -1 or lower, or at about 1 or higher. Calls: active = z-score beyond 1 either way; inactive = z-score within 1 of zero.
This is one part, drawn at random, of about 12,000 reagents. Of all reagents, about 5,600 (46%) got an active call. 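Active calls cover z-scores past 1 in both directions, so they include lowered as well as raised rotavirus replication.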

gene | z-score vs non-targeting control | call
DNAJB8 | -0.868 | inactive
SUCO | -0.126 | inactive
ANKRD54 | 1.3 | active
RBM33 | 1.86 | active
SAMD1 | -1.74 | active
CMIP | -1.29 | active
PLA2G2A | -1.58 | active
ZNF71 | 0.542 | inactive
NPTX2 | -0.235 | inactive
SPRY3 | -0.0004 | inactive
RGS7 | 0.925 | inactive
NDUFAF7 | -0.168 | inactive
SLC25A51 | -0.125 | inactive
MST1 | 0.657 | inactive
EIF4E3 | -2.5 | active
OR14J1 | -1.2 | active
SPDYE3 | -1.06 | active
SETD3 | -0.19 | inactive
OR52B6 | -1.03 | active
PCDHA1 | -1.51 | active
LGMN | 0.964 | inactive
GAPDHS | -0.861 | inactive
ATP1A3 | -0.939 | inactive
CACTIN | -2.19 | active
LYPD8 | -1.28 | active
AMMECR1L | 0.952 | inactive
BBS10 | 0.583 | inactive
DDX1 | -0.856 | inactive
NEDD1 | -0.306 | inactive
API5 | -0.701 | inactive
NR5A1 | -1.14 | active
FOXD4L4 | 0.551 | inactive
CLRN1 | 1.52 | active
MLXIP | -1.6 | active
MRPS18C | 0.369 | inactive
TIGD2 | -0.744 | inactive
MNMIP1 | -0.645 | inactive
KLC1 | 1.21 | active
HBM | -1.82 | active
CARD18 | 0.947 | inactive
DOCK1 | -0.0856 | inactive
OSTN | 0.947 | inactive
IL33R | 0.814 | inactive
MARS2 | -0.942 | inactive
ELMO2 | 0.696 | inactive
NFKBIE | -1.36 | active
CD276 | 0.542 | inactive
FOXF2 | 0.721 | inactive
LTBP1 | 2.19 | active
RBFA | 0.391 | inactive
MED23 | -0.759 | inactive
BRD1 | 0.822 | inactive
WDFY1 | -2.28 | active
PPAT | -0.918 | inactive
ALX1 | -0.642 | inactive
C22orf23 | -0.514 | inactive
KLHL24 | 0.743 | inactive
TMEM86B | -2.79 | active
CDCA8 | -0.145 | inactive
IGSF22 | -1.41 | active
ENTREP3 | 1.14 | active
ADAMTS18 | 1.14 | active
SHH | 0.79 | inactive
RECQL5 | -0.665 | inactive
EIF2B3 | -1.92 | active
FGD5 | 0.443 | inactive
S100A5 | 0.0967 | inactive
EXOSC4 | -0.994 | inactive
ARID4B | 1.33 | active
GGN | -0.488 | inactive
PYGO1 | 0.746 | inactive
ATRN | -0.303 | inactive
CDIP1 | -2.34 | active
ABI3BP | -0.342 | inactive
SLC22A1 | 1.32 | active

Already shown: an excerpt of the list.
gene | z-score vs non-targeting control | call
RBM33 | 1.86 | active
SAMD1 | -1.74 | active
CMIP | -1.29 | active
PLA2G2A | -1.58 | active
ZNF71 | 0.542 | inactive
NPTX2 | -0.235 | inactive
SPRY3 | -0.0004 | inactive
RGS7 | 0.925 | inactive
NDUFAF7 | -0.168 | inactive
SLC25A51 | -0.125 | inactive
MST1 | 0.657 | inactive
EIF4E3 | -2.5 | active
